Measurements from US8871807B2, “Detergents capable of cleaning, bleaching, sanitizing and/or disinfecting textiles including sulfoperoxycarboxylic acids” (Ecolab USA Inc., priority 2008, dated 2014).

Test: Bleaching study of sulfonated peracids, Terg-o-tometer, % soil removal
Conditions: for SR (%) Red Wine on 100% cotton / SR (%) Tea on 100% cotton / SR (%) Tea on cotton-poly blend: 50 ppm available oxygen, 100° F., pH 7, 5 grain hard water, 20 minute; for SR (%) Red Wine on 100% cotton, compared to the POAA control / SR (%) Tea on 100% cotton, compared to the POAA control / SR (%) Tea on cotton-poly blend, compared to the POAA control: difference to equimolar peroxyacetic acid

Row | Structure (SMILES) | SR (%) Red Wine on 100% cotton [%] | SR (%) Tea on 100% cotton [%] | SR (%) Tea on cotton-poly blend [%] | SR (%) Red Wine on 100% cotton, compared to the POAA control [%] | SR (%) Tea on 100% cotton, compared to the POAA control [%] | SR (%) Tea on cotton-poly blend, compared to the POAA control [%]
1 | O=C(CCCCCS(=O)(=O)O)OO [Compound 6-SPOHXA, 6-sulfoperoxyhexanoic acid] | 69 | 45 | 45 | 1 | −5 | 2
2 | O=C(CCCCCCCCCCS(=O)(=O)O)OO [Compound D, 11-sulfoundecaneperoxoic acid] | 48 | 12 | 10 | −20 | −38 | −32
